Assay results as given in PMC2330087, “Mechanistic Insights into a Novel Exporter-Importer System of Mycobacterium tuberculosis Unravel Its Role in Trafficking of Iron” (PLoS ONE, 2008).

By UniProt entry, the sequences of proteins in these tests, tags left out. Where a name states a change or a piece, a line headed by the entry shows the natural chain unless it says otherwise. Residues count along the entry.
UniProt P9WL31: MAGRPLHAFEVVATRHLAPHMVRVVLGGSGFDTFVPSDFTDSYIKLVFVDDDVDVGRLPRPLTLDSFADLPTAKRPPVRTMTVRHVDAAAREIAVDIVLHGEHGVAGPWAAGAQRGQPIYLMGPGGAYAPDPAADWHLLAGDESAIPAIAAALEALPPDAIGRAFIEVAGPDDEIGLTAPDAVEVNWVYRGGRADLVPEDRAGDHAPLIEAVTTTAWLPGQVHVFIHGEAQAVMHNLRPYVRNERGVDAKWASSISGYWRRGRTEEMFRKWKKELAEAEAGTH
UniProt P9WQJ9, 1-251: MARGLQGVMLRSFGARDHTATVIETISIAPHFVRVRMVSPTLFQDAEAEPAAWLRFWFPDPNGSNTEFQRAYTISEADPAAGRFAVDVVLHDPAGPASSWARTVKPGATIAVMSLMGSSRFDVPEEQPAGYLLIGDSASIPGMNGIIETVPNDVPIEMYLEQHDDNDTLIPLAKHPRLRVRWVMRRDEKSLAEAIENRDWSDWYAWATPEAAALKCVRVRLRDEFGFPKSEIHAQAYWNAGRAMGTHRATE

Legend:
rRv2895c = target: T1, rRv2895c (Mycobacterium tuberculosis, UniProt P9WL31)
T1 construct: gene Rv2895c

[1] = target: rSBD (N-terminal siderophore binding domain of IrtA, Rv1348) (Mycobacterium tuberculosis, UniProt P9WQJ9)

Substance	Kd (rRv2895c) [µM]	Kd [1] [µM]
Fe-cMyco	127	50
cMyco	180	25.5
